Results deposited as PubChem BioAssay AID624099 (ICCB-Longwood, 2012)
Purpose: 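Knock-downs relieving repression by E2 of an HPV18 LCR luciferase reporter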 (primary screen). Cells: human C33A cervical carcinoma cells (HPV-negative) stably expressing BPV1 E2 and an HPV18 LCR luciferase reporter. Reagents: siRNA pool against human genes, 40 nM. Time to read-out: 72 h. Measurement: 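Per-well luciferase luminescence, z-scored on each plate against the plate mean and SD with control wells left out, then averaged across three replicate plates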. Direction: mean z-score and z-score: higher = stronger reporter signal, weaker E2 silencing. Call rule: 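Hit if mean z-score reaches 2 and two or more of three replicate z-scores also reach 2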.
The deposit covers about 21,000 reagents; this is a part drawn at random. 497 of all reagents (2.4%) were called active. 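Higher z means weaker E2 silencing; only reporter increases were scored, and knock-downs that hurt cell survival may mask genuine repressor factors.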 Unmarked entries are inactive. The numbers tell different reagents against one gene apart.

gene	reagent	mean z-score	z-score, replicate A	z-score, replicate B	z-score, replicate C
CCR7 (GeneID 1236)	1	1.49	1.61	1.23	1.62
LRRC49 (GeneID 54839)	1	-1.19	-1.38	-1.22	-0.96
PPP2R3A (GeneID 5523)	1	0.43	0.56	0.48	0.25
NBPF4 (GeneID 148545)	1	-0.19	-0.21	-0.02	-0.33
LYVE1 (GeneID 10894)	1	-0.95	-0.99	-0.87	-0.99
MSH5 (GeneID 4439)	1	-0.73	-0.62	-0.9	-0.66
IZUMO4 (GeneID 113177)	1	-0.09	-0.79	0.19	0.32
C8G (GeneID 733)	1	0.93	1.06	0.98	0.75
ACTB (GeneID 60)	1	-1.24	-1.33	-1.09	-1.3
CDR2L (GeneID 30850)	1	1	1.35	0.75	0.92
GYG1 (GeneID 2992)	1	1.32	1.42	1.1	1.44
MROH8 (GeneID 140699)	1	-0.89	-0.38	-0.83	-1.47
GRK5 (GeneID 2869)	1	-0.11	-0.02	0.18	-0.49
CLEC5A (GeneID 23601)	1	1.63	1.2	1.67	2.01
ASGR2 (GeneID 433)	1	0.78	0.99	0.78	0.58
CHRM3 (GeneID 1131)	1	1.23	1	1.4	1.3
YAF2 (GeneID 10138)	1	0.19	-0.19	0.18	0.59
ENO3 (GeneID 2027)	1	1	0.81	1.05	1.15
MRPS30 (GeneID 10884)	1	-0.64	-0.89	-0.53	-0.48
ZNF280D (GeneID 54816)	1	-1.27	-1.31	-1.25	-1.25
COLEC11 (GeneID 78989)	1	0.23	0.03	0.35	0.31
KBTBD7 (GeneID 84078)	1	0.24	-0.11	0.01	0.82
DST (GeneID 667)	1	0.43	0.3	0.56	0.43
ARHGAP35 (GeneID 2909)	1	-0.15	-0.28	0.03	-0.21
UNC93B1 (GeneID 81622)	1	-0.34	-0.23	-0.51	-0.28
POLB (GeneID 5423)	1	-1.43	-1.39	-1.33	-1.57
TSPAN4 (GeneID 7106)	1	1.91	2.08	1.84	1.81
LINC03086 (GeneID 388780)	1	0.92	0.9	0.91	0.94
GPNMB (GeneID 10457)	1	0.41	0.34	0.38	0.5
TAS1R1 (GeneID 80835)	1	0.5	0.17	0.63	0.69
GNRH2 (GeneID 2797)	1	-0.91	-0.92	-0.95	-0.87
HTR1B (GeneID 3351)	1	0.24	0.4	0.18	0.12
HEATR5A (GeneID 25938)	1	1.17	1.22	1.06	1.24
HEATR5A (GeneID 25938)	2	-0.43	-0.26	-0.73	-0.31
NT5C1B (GeneID 93034)	1	0.25	0.23	0.19	0.33
NTM (GeneID 50863)	1	1.6	1.85	1.19	1.76
ZNF614 (GeneID 80110)	1	1.47	1.39	1.31	1.7
ELMOD2 (GeneID 255520)	1	-0.9	-1.06	-0.88	-0.76
HLA-DOB (GeneID 3112)	1	-2.07	-2.21	-2.13	-1.88
LHPP (GeneID 64077)	1	0.28	0.13	0.46	0.27
CSTB (GeneID 1476)	1	-1.27	-1.21	-1.38	-1.21
LGI3 (GeneID 203190)	1	-0.86	-1.08	-0.77	-0.73
LOC388163 (retired record) (GeneID 388163)	1	0.5	0.21	0.53	0.76
CDRT4 (GeneID 284040)	1	-0.77	-0.6	-1.07	-0.64
EMP2 (GeneID 2013)	1	0.19	0.24	0.12	0.21
UCP2 (GeneID 7351)	1	-0.05	-0.03	0.12	-0.24
KCNC2 (GeneID 3747)	1	0.37	0.65	0.55	-0.09
RNF170 (GeneID 81790)	1	-0.83	-0.94	-0.9	-0.66
GRHL1 (GeneID 29841)	1	0.19	0.77	0.36	-0.57
FOXJ1 (GeneID 2302)	1	0.12	0.28	-0.15	0.24
LINC03042 (GeneID 389649)	1	-0.28	-0.54	-1.03	0.74
GABRR1 (GeneID 2569)	1	1.83	2.29	1.82	1.38
GPHRB (GeneID 51463)	1	0.13	0.32	0.08	0
ADPGK (GeneID 83440)	1	0.45	0.68	0.3	0.38
PATL2 (GeneID 197135)	1	0.49	0.3	0.27	0.89
GCFC2 (GeneID 6936)	1	-0.44	-0.07	-0.72	-0.52
PRTFDC1 (GeneID 56952)	1	-0.67	-0.64	-0.75	-0.63

Single entries from above.
ELMOD2 (GeneID 255520), z-score, replicate A: -1.06
Value of KCNC2 (GeneID 3747) under “mean z-score”: 0.37
PRTFDC1 (GeneID 56952), z-score, replicate B → -0.75
Value of EMP2 (GeneID 2013) in “mean z-score”: 0.19
Under “z-score, replicate C”, PPP2R3A (GeneID 5523) has 0.25
